Fold reduction in binding (MFI) against D614G and pseudovirus neutralisation IC50; […] data for two substances are collected here from paper PMC9269068, “Ultrapotent antibodies against diverse and highly transmissible SARS-CoV-2 variants” (2021).

Experiment [1] has as its target full-length S B.1.258.24 (N439K/D614G) (SARS-CoV-2) (UniProt P0DTC2).
The target in experiment [2] is full-length S B.1.177.31 (K417N/E484K/N501Y/D614G) (SARS-CoV-2) (UniProt P0DTC2).
Experiment [3] deals with full-length S B.1.258.24 (N439K/D614G) (SARS-CoV-2) (UniProt P0DTC2). The source holds these as a separate data set.

Substance A19-61.1 displayed a fold reduction in binding (MFI) against D614G in experiment [1] of less than 2 fold.

B1-182.1 showed a fold reduction in binding (MFI) against D614G in experiment [1] of less than 2 fold. Also, the pseudovirus neutralisation IC50; […] in experiment [2] and in experiment [3] was less than 3.2 ng/mL each time.
